Measurements reported in US8975288B2 (priority 2013, dated 2015).

Legend:
[1] = tested on: S. aureus; experiment: F2 resistance assay, S. aureus; conditions: pre-treatment with 40 μM F2
[2] = tested on: S. flexneri TolC mutant; experiment: MIC study, S. flexneri TolC mutant; conditions: Table 5

| Compound | Induction of resistance to F2 in S. aureus [1] | MIC S. flexneri TolC [2] [µM] |
| --- | --- | --- |
| CCCn1nnnc1NC(=O)c1cccc(Cl)c1 [Compound F2, reference compound] | induces resistance | 3.12 (≈ 0.829 µg/mL) |
| CN(C)c1cccc2c(S(=O)(=O)NCCn3nnnc3NC(=O)c3cccc(Cl)c3)cccc12 [Dansyl-F2, 3-chloro-N-(1-(2-(5-(dimethylamino)naphthalene-1-sulfonamido)ethyl)-1H-tetrazol-5-yl)benzamide] |  | 6.25 (≈ 3.12 µg/mL) |

In brackets after ≈: the same amount, converted by molar mass.
